Measurements reported in PubChem BioAssay AID720579 (National Center for Advancing Translational Sciences (NCATS), 2013).
The list shows a part of the results, in another mix than the full data. Inconclusive results are not listed. Activity calls are given as the source filed them. Calls come from the whole dose curve; tested in A549 cells.

Assay: qHTS for Stage-Specific Inhibitors of Vaccinia Orthopoxvirus: mCherry Reporter Primary qHTS; note: nearly all actives have a fitted effect of over 35% in size
Conditions: Vaccinia virus mCherry reporter infection, fluorescence
Potency is the fitted concentration of half-maximal effect.

SMILES | Potency
CC1CCOC(=O)C=CC=CC(=O)OC2CC3OC4C5OC5(C)C(O)CC4(COC(=O)C1O)C2(C)C31CO1 (configuration not stated) | active: 282 nM
O=[N+]([O-])c1cc([N+](=O)[O-])c(-c2cnn(-c3ccccc3)c2)c([N+](=O)[O-])c1 | active: 891 nM
